{"source": "patent US8790898B2", "about": "(priority 2008, dated 2014)", "key": {"HIV-1 BZ 167": {"tested_on": "HIV-1 BZ 167", "format": "cell-based"}, "[1]": {"tested_on": "CBD1 peptide and CBD1- and CBM-based peptides", "design": "species or system BALB/c mice", "details": "mouse, in vivo, sc"}}, "data": [{"substance": "K-Q-M-N-M-W-Q-V-V-G-KA-M-Y-A-K-K-I-W-N-N-M-T-W-M-Q-W-D-K (KQMNMWQVVGKAMYAKKIWNNMTWMQWDK; K30K - chimeric peptide T cell epitope from HIV-1 gp 120 421-438 fused to a caveolin-1 binding domain from HIV-1 gp41 protein)", "values": [{"measurement": "% inhibition of HIV-1 at 200-fold dilution", "setting": "HIV-1 BZ 167", "value": 61, "unit": "%"}, {"measurement": "Neutralizing activity ID50", "setting": "HIV-1 BZ 167", "value": "200-fold"}, {"measurement": "ELISA titer against C17K", "setting": "[1]", "value": "2.02 ± 0.41"}, {"measurement": "IgG2/IgG1 ratio", "setting": "[1]", "value": 6.66}]}]}
